The target of the data set is T1, PstI restriction endonuclease (Providencia stuartii) (UniProt P00640).
T1 sequence (looked up, limits assumed): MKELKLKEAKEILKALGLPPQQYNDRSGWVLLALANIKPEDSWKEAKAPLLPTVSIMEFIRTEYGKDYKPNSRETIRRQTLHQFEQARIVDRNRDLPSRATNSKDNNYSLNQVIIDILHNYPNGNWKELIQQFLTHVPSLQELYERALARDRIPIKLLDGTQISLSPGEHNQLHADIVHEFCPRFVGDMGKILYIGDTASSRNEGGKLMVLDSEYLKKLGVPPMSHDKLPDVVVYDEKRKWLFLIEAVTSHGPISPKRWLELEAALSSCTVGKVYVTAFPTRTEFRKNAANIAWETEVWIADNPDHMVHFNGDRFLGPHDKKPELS
In words: enzyme reaction in vitro. The following applies: cleaves own template in droplets, 37 C, 2 h; at least 100-fold enrichment per round over GFP template; protein translated in vitro.

Tags and fusion partners may be left off the protein sequences shown.

For “CTGCAG (double strand) [PstI recognition site (two tandem copies at template end)]”, the “activity on this sequence” value is “active”.

Values taken from patent US8753847.
